Results of unrelated studies side by side (data: NIAID ChemDB).

Shared fields: tests in culture; species: HIV-2; read by: cytopathic effect / trypan blue; endpoint: EC50

ECn is the concentration giving n% inhibition of infection, replication or growth.

SMILES | cells | strain or isolate | value
Cc1cn([C@@H]2O[C@H](CC3CCCCC3)C3(OS(=O)(=O)C=C3N)[C@H]2O[Si](C)(C)C(C)(C)C)c(=O)[nH]c1=O | MT-4 | ROD | >4 µg/mL
Cc1cn([C@H]2C[C@H](N=[N+]=[N-])[C@@H](COP(=O)(OCCSC(=O)C(C)(C)C)N3CCOCC3)O2)c(=O)[nH]c1=O | CEM + CEM TK- | ROD | 2 µM
Nc1nc2c(ncn2COC(CO)CO)c(=O)[nH]1 | MT-4 | - | >500 µM
Cc1cn([C@@H]2O[C@H](CO)C3(OS(=O)(=O)C=C3N)[C@H]2O[Si](C)(C)C(C)(C)C)c(=O)[nH]c1=O | MT-4 | ROD | >100 µM
Cc1cn([C@@H]2O[C@H](CO[Si](C)(C)C(C)(C)C)[C@@H](O)[C@H]2O[Si](C)(C)C(C)(C)C)c(=O)n(CC#N)c1=O | MT-4 | ROD | >2 µM
CCOC(=O)[C@H](C)NP(=O)(OC[C@@H]1C=C[C@H](n2cc(C)c(=O)[nH]c2=O)O1)Oc1ccccc1 | CEM + CEM TK- | ROD | 0.07 µM
Nc1ccn([C@H]2C=C[C@@H](CO)O2)c(=O)n1 | MT-4 | ROD | 0.7 µM
C=CCn1c(=O)c(C)cn([C@@H]2O[C@H](CO[Si](C)(C)C(C)(C)C)C3(OS(=O)(=O)C=C3N)[C@H]2O[Si](C)(C)C(C)(C)C)c1=O | MT-4 | ROD | >300 µM
Cc1cn([C@H]2C=C[C@@H](CO)O2)c(=O)[nH]c1=O | MT-4 | ROD | 0.32 µM
Cc1cn([C@@H]2O[C@H](CO[Si](C)(C)C(C)(C)C)[C@@H](O)[C@H]2O[Si](C)(C)C(C)(C)C)c(=O)n(CC(=O)ON)c1=O | MT-4 | ROD | >2 µM
C[C@@H](Cn1cnc2c(N)ncnc21)OCP(=O)(O)O | MT-4 | ROD | 217 µM
Nc1ncnc2c1ncn2[C@H]1CC[C@@H](CO)O1 | MT-4 | ROD | 6 µM
CC(C)(C)[Si](C)(C)OC[C@H]1O[C@@H](n2ccc(=O)[nH]c2=O)[C@H](O[Si](C)(C)C(C)(C)C)C12OS(=O)(=O)C=C2N | MT-4 | ROD | >10 µM
CC(=O)O[C@@H]1[C@H](n2cc(C)c(=O)[nH]c2=O)O[C@@H](COC(=O)c2ccccc2)C12OS(=O)(=O)C=C2N | MT-4 | ROD | >100 µg/mL
Nc1nccc2c1ncn2[C@@H]1C[C@H](CO)[C@@H](O)[C@H]1O | MT-4 | - | >500 µM
Cc1cn([C@@H]2O[C@H](CO[Si](C)(C)C(C)(C)C)C3(OS(=O)(=O)C=C3N)[C@H]2O[Si](C)(C)C(C)(C)C)c(=O)n(CCOC(=O)[C@@H](N)C(C)C)c1=O | MT-4 | ROD | >10 µM
NC(=O)c1ncn([C@@H]2O[C@H](CO)[C@@H](O)[C@H]2O)n1 | MT-4 | ROD | >20 µg/mL
O=c1ccn([C@H]2CC[C@@H](CO)O2)c(=O)[nH]1 | MT-4 | ROD | 174 µM
Nc1nc(N)c2ncn(CC(CF)OCP(=O)(O)O)c2n1 | MT-4 | LAV-2 | 13 µM
Cc1cn([C@@H]2O[C@H](CCC(C)C)C3(OS(=O)(=O)C=C3N)[C@H]2OC(=O)c2ccccc2)c(=O)[nH]c1=O | MT-4 | ROD | >4 µg/mL
Cc1cn([C@@H]2O[C@H](COC(=O)c3ccccc3)[C@@H](O)[C@H]2OC(=O)c2ccccc2)c(=O)n(CC(=O)O)c1=O | MT-4 | ROD | >50 µM
Cc1cn([C@@H]2O[C@H](CO[Si](C)(C)C(C)(C)C)C3(OS(=O)(=O)C=C3N)[C@H]2O[Si](C)(C)C(C)(C)C)c(=O)n(C)c1=O | MT-4 | ROD | >50 µM
Cc1cn([C@@H]2O[C@H](CO[Si](C)(C)C(C)(C)C)C3(OS(=O)(=O)C=C3N)[C@H]2O[Si](C)(C)C(C)(C)C)c(=O)n(CC(=O)N[C@@H](C)C(=O)OCc2ccccc2)c1=O | MT-4 | ROD | >250 µM
Cc1cn([C@@H]2O[C@H](CC3CCCCC3)C3(OS(=O)(=O)C=C3N)[C@H]2OC(=O)c2ccccc2)c(=O)[nH]c1=O | MT-4 | ROD | >4 µg/mL
CS(=O)(=O)c1ccc(OP(=O)(OC[C@@H]2C=C[C@H](n3cnc4c(=O)[nH]cnc43)O2)OC[C@@H]2C=C[C@H](n3cnc4c(=O)[nH]cnc43)O2)cc1 | MT-4 | ROD | >250 µM
CC(C)(C)[Si](C)(C)OC[C@H]1O[C@@H](n2ccc(=O)n(CC(=O)O)c2=O)[C@H](O)[C@@H]1O[Si](C)(C)C(C)(C)C | MT-4 | ROD | >10 µM
O=c1[nH]c(=O)n([C@H]2C[C@H](O)[C@@H](CO)O2)cc1/C=C/Br | MT-4 | - | >500 µM
Nc1nc2c(ncn2CC(CF)OCP(=O)(O)O)c(=O)[nH]1 | MT-4 | LAV-2 | 10 µM
Cc1cn([C@H]2C=C[C@@H](CO[Si](C)(C)C(C)(C)C)O2)c(=O)n(CC(=O)O)c1=O | MT-4 | ROD | >50 µM
Nc1ncnc2c1ncn2CC(CF)OCP(=O)(O)O | MT-4 | LAV-2 | 11 µM
CSc1ccc(OP(=O)(OC[C@@H]2CC[C@H](n3cnc4c(=O)[nH]cnc43)O2)OC[C@@H]2CC[C@H](n3cnc4c(=O)[nH]cnc43)O2)cc1 | MT-4 | ROD | ≥250 µM

Lines come from different laboratories, so protocols vary. An empty or dashed field is not shown.